A mixed list of measured activities; the numbers were collected in NIAID ChemDB.

Shared fields: growth or infection tests; organism: Mycobacterium avium complex; read-out: MIC

Neighbouring rows are from separate reports. Two numbers with a dash give a range or band.

compound,strain,result
CC[C@H]1OC(=O)[C@H](C)[C@@H](O[C@H]2C[C@@](C)(OC)[C@@H](OC(C)=O)[C@H](C)O2)[C@H](C)[C@@H](O[C@@H]2O[C@H](C)C[C@H](N(C)C)[C@H]2OC(=O)NNCc2ccc([N+](=O)[O-])cc2)C(C)(O)C[C@@H](C)/C(=N\OCCCC2CCCCC2)[C@H](C)[C@@H](O)[C@]1(C)O,20039 (clarithromycin-susceptible),1.56 µg/mL
Cc1onc(-c2ccccc2Cl)c1C(=O)N[C@@H]1C(=O)N2[C@@H]1SC(C)(C)[C@@H]2C(=O)O,CIPT 140310003 (rough),25 µg/mL
CO[C@H]1/C=C/O[C@@]2(C)Oc3c(C)c(O)c4c(=O)c(c5oc6cc(N7CCN(CC(C)C)CC7)cc(=O)c6nc5c4c3=C2O)NC(=O)/C(C)=C\C=C\[C@H](C)[C@H](O)[C@@H](C)[C@@H](O)[C@@H](C)[C@H](OC(C)=O)[C@@H]1C,N-945 (HIV+),0.05 µg/mL
CN[C@@H]1[C@H](O[C@H]2[C@H](O[C@H]3[C@H](O)[C@@H](O)[C@H](N=C(N)N)[C@@H](O)[C@@H]3N=C(N)N)O[C@@H](C)[C@]2(O)C=O)O[C@@H](CO)[C@H](O)[C@H]1O,CIPT 140310003 (smooth),6 µg/mL
CO[C@H]1/C=C/O[C@@]2(C)Oc3c(C)c(O)c4c(O)c(c5c(c4c3C2=O)NC2(CCN(CC(C)C)CC2)N=5)=NC(=O)/C(C)=C\C=C\[C@H](C)[C@H](O)[C@@H](C)[C@@H](O)[C@@H](C)[C@H](OC(C)=O)[C@@H]1C,N-962 (HIV+),0.1 µg/mL
CC[C@H]1OC(=O)[C@H](C)[C@@H](OC2C[C@@](C)(OC)[C@@H](O)[C@H](C)O2)[C@H](C)[C@@H](O[C@@H]2O[C@H](C)C[C@H](N(C)C)[C@H]2O)C(C)(O)C[C@@H](C)/C(=N\OCCCOc2ccccc2)[C@H](C)[C@@H](O)[C@]1(C)O,20039,1.56 µg/mL
CC[C@H]1OC(=O)[C@H](C)[C@@H](O[C@H]2C[C@@](C)(OC)[C@@H](OC(C)=O)[C@H](C)O2)[C@H](C)[C@@H](O[C@@H]2O[C@H](C)C[C@H](N(C)C)[C@H]2O)C(C)(O)C[C@@H](C)/C(=N\OCCSc2ccccc2)[C@H](C)[C@@H](O)[C@]1(C)O,20039 (clarithromycin-susceptible),1.56 µg/mL
Cc1ccccc1CSc1ccccn1,NJ211,>12.8 µg/mL
O=c1c2ccccc2sn1CCO,ISS 486,32 µg/mL
CC[C@H]1OC(=O)[C@H](C)[C@@H](OC2C[C@@](C)(OC)[C@@H](O)[C@H](C)O2)[C@H](C)[C@@H](O[C@@H]2O[C@H](C)C[C@H](N(C)C)[C@H]2O)C(C)(OC)C[C@@H](C)/C(=N\OCCCOc2ccccc2)[C@H](C)[C@@H](O)[C@]1(C)O,20096,6.25 µg/mL
CCNC(=O)OCCn1sc2ccccc2c1=O,ISS 486,>32 µg/mL
C[C@@H]1CN(c2c(F)c(N)c3c(=O)c(C(=O)O)cn(C4CC4)c3c2F)C[C@H](C)N1,N-961 (HIV+),1 µg/mL
COc1ccccc1CSc1ccccn1,NJ211,>12.8 µg/mL
CCCO/N=C1\[C@H](C)CC(C)(O)[C@H](O[C@@H]2O[C@H](C)C[C@H](N(C)C)[C@H]2O)[C@@H](C)[C@H](OC2C[C@@](C)(OC)[C@@H](O)[C@H](C)O2)[C@@H](C)C(=O)O[C@H](CC)[C@@](C)(O)[C@H](O)[C@H]1C,20096,>50 µg/mL
CCCCCC/C=C/c1ccc2c(c1)C(=O)c1nc3ccncc3c(=O)n1-2,19075,0.06 µg/mL
CC[C@H]1OC(=O)[C@H](C)[C@@H](O[C@H]2C[C@@](C)(OC)[C@@H](OC(C)=O)[C@H](C)O2)[C@H](C)[C@@H](O[C@@H]2O[C@H](C)C[C@H](N(C)C)[C@H]2OC(=O)NN(C)C)C(C)(O)C[C@@H](C)/C(=N\OCCCC2CCCCC2)[C@H](C)[C@@H](O)[C@]1(C)O,20096 (clarithromycin-resistant),3.13 µg/mL
COc1cc(CSc2nc(=O)[nH]c3nc[nH]c23)cc(OC)c1,NJ211,>12.8 µg/mL
O=C1c2cc(F)ccc2-n2c1nc1ccc(F)cc1c2=O,19075,0.13 µg/mL
CC1(C)N=C(N)N=C(N)N1OCCCOc1cc(Cl)c(Cl)cc1Cl,1625,2 µg/mL
CO[C@H]1/C=C/O[C@@]2(C)Oc3c(C)c(O)c4c(O)c(c5c(c4c3C2=O)NC2(CCN(CC(C)C)CC2)N=5)=NC(=O)/C(C)=C\C=C\[C@H](C)[C@H](O)[C@@H](C)[C@@H](O)[C@@H](C)[C@H](OC(C)=O)[C@@H]1C,101,0.25 µg/mL
CCCCCN(CCCCC)c1ccc2c(=O)n3c(nc2c1)C(=O)c1cc(Cl)ccc1-3,19075,25 µg/mL
CC(C)(C)NC(=O)OCCN=c1ssc2ccccc12,ISS 486,4 µg/mL
CCOC(=O)c1ccc2c(c1)C(=O)c1nc3c(OC)cccc3c(=O)n1-2,19075,5 µg/mL
Clc1nc(Sc2ccccc2Cl)c2[nH]cnc2n1,NJ211,>12.8 µg/mL
CC[C@H]1OC(=O)[C@H](C)[C@@H](O[C@H]2C[C@@](C)(OC)[C@@H](O)[C@H](C)O2)[C@H](C)[C@@H](O[C@@H]2O[C@H](C)C[C@H](N(C)C)[C@H]2O)[C@](C)(OC)C[C@@H](C)C(=O)[C@H](C)[C@@H](O)[C@]1(C)O,ATCC 13950,1 µg/mL
CCCNC(=O)OCCN=c1ssc2ccccc12,AN1,4 µg/mL
CCCCCCCCO/N=C1\[C@H](C)CC(C)(O)[C@H](O[C@@H]2O[C@H](C)C[C@H](N(C)C)[C@H]2O)[C@@H](C)[C@H](OC2C[C@@](C)(OC)[C@@H](O)[C@H](C)O2)[C@@H](C)C(=O)O[C@H](CC)[C@@](C)(O)[C@H](O)[C@H]1C,20096,6.25 µg/mL
NNC(=O)c1ccncc1,13034,0.8–2.5 µg/mL
CCCCO/N=C1\[C@H](C)CC(C)(O)[C@H](O[C@@H]2O[C@H](C)C[C@H](N(C)C)[C@H]2O)[C@@H](C)[C@H](OC2C[C@@](C)(OC)[C@@H](O)[C@H](C)O2)[C@@H](C)C(=O)O[C@H](CC)[C@@](C)(O)[C@H](O)[C@H]1C,20039,0.78 µg/mL
CC[C@H]1OC(=O)[C@H](C)[C@@H](OC2C[C@@](C)(OC)[C@@H](OC(=O)CCCCc3ccccc3)[C@H](C)O2)[C@H](C)[C@@H](O[C@@H]2O[C@H](C)C[C@H](N(C)C)[C@H]2O)C(C)(O)C[C@@H](C)/C(=N\OCCCOc2ccccc2)[C@H](C)[C@@H](O)[C@]1(C)O,20096 (clarithromycin-resistant),3.13 µg/mL
C[C@@H](O)[C@H]1C(=O)N2C(C(=O)O)=C(SCCN=CN)C[C@H]12,CIPT 140310012,>10 µg/mL
COc1ccc(Sc2ncccn2)cc1OC,NJ211,>12.8 µg/mL
CC[C@H]1OC(=O)[C@H](C)[C@@H](O[C@H]2C[C@@](C)(OC)[C@@H](O)[C@H](C)O2)[C@H](C)[C@@H](O[C@@H]2O[C@H](C)C[C@H](N(C)C)[C@H]2O)[C@](C)(OC)C[C@@H](C)C(=O)[C@H](C)[C@@H](O)[C@]1(C)O,N-316 (HIV-),1 µg/mL
CCCCCCCCCCO/N=C1\[C@H](C)CC(C)(O)[C@H](O[C@@H]2O[C@H](C)C[C@H](N(C)C)[C@H]2O)[C@@H](C)[C@H](OC2C[C@@](C)(OC)[C@@H](O)[C@H](C)O2)[C@@H](C)C(=O)O[C@H](CC)[C@@](C)(O)[C@H](O)[C@H]1C,20039,12.5 µg/mL
O=C1c2cc([N+](=O)[O-])ccc2-n2c1nc1ncccc1c2=O,19075,25 µg/mL
CC1(C)S[C@@H]2[C@H](NC(=O)C(C(=O)O)c3ccccc3)C(=O)N2[C@H]1C(=O)O,CIPT 140310012,25 µg/mL
CC(C)NC(=O)OCCN=c1ssc2ccccc12,AN1,2 µg/mL
CC[C@H]1OC(=O)[C@H](C)[C@@H](OC2C[C@@](C)(OC)[C@@H](O)[C@H](C)O2)[C@H](C)[C@@H](O[C@@H]2O[C@H](C)C[C@H](N(C)C)[C@H]2O)C(C)(O)C[C@@H](C)/C(=N\OCCc2ccccc2)[C@H](C)[C@@H](O)[C@]1(C)O,20096,25 µg/mL
CCOC(=O)c1ccc2c(c1)C(=O)c1nc3ncccc3c(=O)n1-2,101,5 µg/mL

For reference, 4 entries again:

compound | strain | result
C[C@@H](O)[C@H]1C(=O)N2C(C(=O)O)=C(SCCN=CN)C[C@H]12 | CIPT 140310012 | >10 µg/mL
CC[C@H]1OC(=O)[C@H](C)[C@@H](O[C@H]2C[C@@](C)(OC)[C@@H](O)[C@H](C)O2)[C@H](C)[C@@H](O[C@@H]2O[C@H](C)C[C@H](N(C)C)[C@H]2O)[C@](C)(OC)C[C@@H](C)C(=O)[C@H](C)[C@@H](O)[C@]1(C)O | N-316 (HIV-) | 1 µg/mL
CCOC(=O)c1ccc2c(c1)C(=O)c1nc3ncccc3c(=O)n1-2 | 101 | 5 µg/mL
CCOC(=O)c1ccc2c(c1)C(=O)c1nc3c(OC)cccc3c(=O)n1-2 | 19075 | 5 µg/mL